Pooled drug test results. Numbers come from NIAID ChemDB, via PubChem.

All rows: growth or infection tests; organism: Candida albicans; read-out: MIC

An empty or dashed field is not shown. Conditions beyond the fields shown may differ between rows.

structure | strain | result
COc1ccc2c(c1)C(=O)C(c1ccc(-c3ccc(Cl)cc3)cc1)=[N+]2[O-] | - | 31.25 µg/mL
CC1CCN(CCCCCCSc2ccc(/C=C/C(=O)c3ccccc3)cc2)CC1 | PCM 1409 PZH | <237 µM
COC(=O)[C@]1(C)CCC[C@]2(C)c3ccc(C(C)C)cc3-c3[nH]c4ccc(F)cc4c3C12 | CGMCC 2.2086 | 62.5 µg/mL
C=C(C)CN1CC(OCC23C[C@@H]4[C@H](C)CC[C@H]4C4(C=O)CC2C=C(C(C)C)[C@@]34C(O)O)O[C@H](C)[C@@H](O)C1 | ATCC 24433 | 0.016 µg/mL
CCCCOC(=O)/C=C/C(=O)OCCCC | ATCC 10231 | >100 µg/mL
COc1cc(O)c2c(c1)C(=O)c1c(cc3c(c1O)-c1c(cc(C)c(C(=O)N[C@H](C)C(=O)O)c1O)[C@H](O[C@@H]1O[C@H](C)[C@H](N)[C@H](O[C@@H]4OC[C@@H](O)[C@H](O)[C@@H]4O)[C@H]1O)[C@H]3O)C2=O | 83-2-14 | 3.1 µg/mL
Cc1ccc(Oc2c(C3C(C#N)=C(N)OC4=C3C(=O)CCC4)c(C)nn2-c2ccccc2)cc1 | MTCC 227 | 500 µg/mL
CC(CP(c1cccc(C(F)(F)F)c1)c1cccc(C(F)(F)F)c1)(CP(c1cccc(C(F)(F)F)c1)c1cccc(C(F)(F)F)c1)CP(c1cccc(C(F)(F)F)c1)c1cccc(C(F)(F)F)c1 | - | 500 µg/mL
CCn1c(=O)c(C(=O)O)c(O)c2cc3c(cc21)OCO3 | ATCC 10231 | >100 µg/mL
CCCCCOC(=O)/C=C\C(=O)OCCCCC | ATCC 10231 | >100 µg/mL
O=S=Cc1ccccc1 | - | 128 µg/mL
CCC(C)n1ncn(-c2ccc(N3CCN(c4ccc(OC[C@H]5CO[C@](Cn6cncn6)(c6ccc(Cl)cc6Cl)O5)cc4)CC3)cc2)c1=O | Isogenic mutant isolate 1 | 0.015 µg/mL
CN1C(=O)C(=O)N(C)C1=S | CA10 | >100 µg/mL
COc1ccnc(C(=O)NC/C=C(\C)C2COC(=O)C(Cc3ccccc3)C(OC(=O)C(C)C)C(C)OC2=O)c1O | IFO1061 | >100 µg/mL
Cc1ccc(-c2nc([N+]#N)c(C(=O)N3CCCC3)[nH]2)cc1 | ATCC 10231 | 25 µg/mL
Clc1ccc(COC(Cn2ccnc2)c2ccc(Cl)cc2Cl)c(Cl)c1 | - | 8 µg/mL
COc1ccnc(C(=O)NCC=C(C)C=C(C)C2COC(=O)C(Cc3ccccc3)C(OC(=O)C(C)C)C(C)OC2=O)c1O | IFO1061 | >100 µg/mL
O=S(CCO)SCCO | - | >512 µg/mL
C[C@H](CCC(=O)NCCS(=O)(=O)O)[C@H]1CC[C@H]2[C@@H]3CC[C@@H]4C[C@H](OS(=O)(=O)O)CC[C@]4(C)C3CC[C@]12C | - | >500 µg/mL
Cc1ccc(Oc2c(C3C(C#N)=C(N)OC4=C3C(=O)CC(C)(C)C4)c(C)nn2-c2ccc(C)cc2)cc1 | MTCC 227 | >1000 µg/mL
COc1ccc(C2=[N+]([O-])c3ccccc3C2=O)cc1 | - | >125 µg/mL
c1ccc(CSSCc2ccccc2)cc1 | - | 256 µg/mL
C/C=C(\C)C(=O)Nc1c2sscc-2n(C)c1=O | IPA200 | 20 µg/mL
CCC(C)CCCCCCCCCCC(=O)N[C@H]1C[C@@H](O)[C@@H](O)NC(=O)C2[C@@H](O)[C@@H](C)CN2C(=O)C(CO)NC(=O)C([C@H](O)C(O)c2ccc(O)cc2)NC(=O)NC(=O)[C@@H]2C[C@@H](O)CN2C(=O)[C@H]([C@@H](C)O)NC1=O | - | 1 µg/mL
COc1ccnc(C(=O)NCCCC2COC(=O)C(Cc3ccccc3)C(OC(=O)C(C)C)C(C)OC2=O)c1O | IFO1061 | >100 µg/mL
C=CCc1ccc(O)c(-c2ccc(O)c(CC=C)c2)c1 | KCTC 1940 | 25 µg/mL
CN[C@@H]1[C@H](O)[C@@H](O)[C@H](O[C@H]2c3cc(C)c(C(=O)N[C@H](C)C(=O)O)c(O)c3-c3c(cc4c(c3O)C(=O)c3cc(OC)cc(O)c3C4=O)[C@@H]2O)O[C@@H]1C | 83-2-14 | 3.1 µg/mL
O=C(/C=C/c1ccc(SCCCCCCN2CCCCC2)cc1)c1ccccc1 | PCM 1409 PZH | <246 µM
CC1(C)N=C([Se])NC1=O | CA10 | 0.195 µg/mL
C[C@@H]1O[C@@H](O[C@H]2[C@H](O[C@H]3CC[C@@]4(C)[C@@H](CC[C@]5(C)[C@@H]4CC=C4[C@@H]6CC(C)(C)CC[C@]6(C(=O)O)CC[C@]45C)[C@]3(C)CO)OC[C@H](O)[C@@H]2O)[C@H](O)[C@H](O)[C@H]1O | - | 25 µg/mL
COc1cc(Cc2cnc(N)nc2N)cc(OC)c1OCCCNc1ccc(S(=O)(=O)c2ccc(N)cc2)cc1 | YEM13 (BENUP) | >64 µg/mL
CCOC(=O)/C=C\C(=O)OCC | ATCC 10231 | >100 µg/mL
COc1ccc(Oc2c(C3C(C#N)=C(N)OC4=C3C(=O)CCC4)c(C)nn2-c2ccc(C)cc2)cc1 | MTCC 227 | 200 µg/mL
CCCC[C@H]1C(=O)O[C@H](C)C(CCCNC(=O)c2cccc(NC=O)c2O)C(=O)O[C@@H](C)[C@@H]1OC(=O)CC(C)C | IFO1061 | 6.25 µg/mL
N#CC1=C(N)Oc2c(c(=O)oc3ccccc23)C1c1cc2ccccc2nc1Oc1ccc(Cl)cc1 | MTCC 227 | 250 µg/mL
Nc1[nH]c(=O)ncc1F | - | 0.5 µg/mL
COc1ccc2c(c1OC)CN(C)c1c-2ccc2cc3c(cc12)OCO3 | ATCC 10231 | 18.7 µg/mL
Cc1nn(-c2ccccc2)c(Oc2ccc(Cl)cc2)c1C1C(C#N)=C(N)OC2=C1C(=O)CCC2 | MTCC 227 | 100 µg/mL
COc1ccc2nc(Oc3ccc(C)cc3)c(C3C(C#N)=C(N)Oc4c3c(=O)oc3ccc(C)cc43)cc2c1 | MTCC 227 | 200 µg/mL
C=C(Cl)/C=C/[C@H](O)CC(=C)C[C@H]1OC2[C@@H](O)[C@]3(O)C[C@@H](O)[C@H](C)[C@H](CCC/C=C\[C@@H]4C[C@@H](O)C[C@]5(C[C@H](OC)CC(CC(=O)[C@@H](C)[C@H](OC(C)=O)[C@@H](C)C(=C)C[C@@H]6C[C@@](C)(O)C[C@]7(C[C@H](OC(C)=O)CC(CC(=O)O[C@@H]([C@@H]1O)[C@H]2C)O7)O6)O5)O4)O3 | ATCC64124 | 6.25 µg/mL
C[C@H](CCC(=O)NCCNCCNC(=O)CC[C@@H](C)[C@H]1CCC2C3C(C[C@H](C)[C@@]21O)[C@@]1(C)CC[C@@H](O)CC1C[C@H]3O)[C@H]1CCC2C3C(C[C@H](C)[C@@]21O)[C@@]1(C)CC[C@@H](O)CC1C[C@H]3O | Isolate 2 | 0.011 µM
Cc1ccc2oc(=O)c3c(c2c1)OC(N)=C(C#N)C3c1cc2ccccc2nc1Oc1ccc(Cl)cc1 | MTCC 227 | 500 µg/mL
CCN1C(=O)C(=O)N(CC)C1=S | CA10 | >100 µg/mL
CC1(C)CCC(C)(C)c2cc(-c3nc4ccc([N+](=O)[O-])cc4[nH]3)ccc21 | - | 100 µg/mL
Cc1ccc(Oc2nc3ccccc3cc2C2C(C#N)=C(N)Oc3c2c(=O)oc2ccc(C)cc32)cc1 | MTCC 227 | 500 µg/mL
N#[N+]c1nc(-c2cccc(F)c2)[nH]c1C(=O)N1CCCC1 | ATCC 10231 | 100 µg/mL
CC(=O)N[C@H]1[C@@H](O[C@@H]2O[C@H](C[C@@H](O)[C@H]3O[C@@H](n4ccc(=O)[nH]c4=O)[C@H](O)[C@@H]3O)[C@H](O)[C@H](O)[C@H]2NC(=O)/C=C/CC(C)C)O[C@H](CO)[C@@H](O)[C@@H]1O | - | 0.25 µg/mL
COC(=O)[C@]1(C)CCC[C@]2(C)c3ccc(C(C)C)cc3C(=O)C[C@@H]12 | CGMCC 2.2086 | >100 µg/mL
COc1ccc(Oc2c(C3C(C#N)=C(N)OC4=C3C(=O)CC(C)(C)C4)c(C)nn2-c2ccc(C)cc2)cc1 | MTCC 227 | 500 µg/mL
COc1ccnc(C(=O)N[C@H]2COC(=O)[C@H](Cc3ccccc3)[C@@H](OC(=O)C(C)C)[C@H](C)OC2=O)c1O | IFO1061 | 0.39 µg/mL
Cc1ccc2nc(Oc3ccccc3)c(C3C(C#N)=C(N)Oc4c3c(=O)oc3ccc(C)cc43)cc2c1 | MTCC 227 | >1000 µg/mL
COC(=O)C#CC(=O)OC | ATCC 10231 | >100 µg/mL
COP(=O)(OC)OC[C@@H](O)[C@@H](O)[C@H](O)[C@@H](N)CO | ATCC26278 | 300 µg/mL
c1ccc(-c2ccc(C(c3ccccc3)n3ccnc3)cc2)cc1 | - | >125 µg/mL
COC(=O)[C@]1(C)CCC[C@]2(C)c3ccc(C(C)C)cc3-c3[nH]c4c(C)cccc4c3C12 | CGMCC 2.2086 | >100 µg/mL
CC(Cc1ccc(C(C)(C)C)cc1)CN1CC(C)OC(C)C1 | DAY364 (genotype CNB1/CNB1) | ≤0.01 µg/mL
CCCOC(=O)/C=C/C(=O)OCCC | ATCC 10231 | >100 µg/mL
CCC(C)(C)c1ccc(CC(C)CN2C[C@@H](C)O[C@@H](C)C2)cc1 | - | 4 µg/mL
N#[N+]c1nc[nH]c1C(=O)N1CCCC1 | ATCC 10231 | 100 µg/mL
CC(C)C(=O)Nc1c2sscc-2n(C)c1=O | IPA200 | 30 µg/mL
CN(C/C=C/C#CC(C)(C)C)Cc1cccc2ccccc12 | - | 8 µg/mL
c1ccc(CSSSCc2ccccc2)cc1 | - | 16 µg/mL
N#CC1=C(N)Oc2c(c(=O)oc3ccccc23)C1c1cc2ccccc2nc1Oc1ccccc1 | MTCC 227 | 250 µg/mL
CO[C@]1(CC[C@H](C)CO[C@@H]2O[C@H](CO)[C@@H](O)[C@H](O)[C@H]2O)O[C@H]2C[C@H]3[C@@H]4CC=C5C[C@@H](C6O[C@H](CO)[C@@H](O[C@@H]7O[C@@H](C)[C@H](OC8O[C@@H](C)[C@H](O)[C@@H](O)[C@H]8O)[C@@H](O)[C@H]7O)[C@H](O)[C@H]6O[C@@H]6O[C@@H](C)[C@H](O)[C@@H](O)[C@H]6O)CC[C@]5(C)[C@H]4CC[C@]3(C)[C@H]2[C@@H]1C | - | >200 µg/mL
COC(=O)C(Br)CF | ATCC 10231 | >100 µg/mL
COC(=O)[C@]1(C)CCC[C@]2(C)c3ccc(C(C)C)cc3-c3[nH]c4ccc(OC)cc4c3C12 | CGMCC 2.2086 | 62.5 µg/mL
COC(=O)[C@@H](Br)[C@@H](F)C(=O)OC | ATCC 10231 | 30 µg/mL
O=C1C(c2ccc(Cl)cc2)=[N+]([O-])c2cccnc21 | - | 15.63 µg/mL
N#[N+]c1nc(-c2ccccc2Cl)[nH]c1C(=O)N1CCCC1 | ATCC 10231 | 50 µg/mL

A second listing of 10 rows from above:

structure	strain	result
N#CC1=C(N)Oc2c(c(=O)oc3ccccc23)C1c1cc2ccccc2nc1Oc1ccc(Cl)cc1	MTCC 227	250 µg/mL
c1ccc(CSSCc2ccccc2)cc1	-	256 µg/mL
Cc1ccc(Oc2c(C3C(C#N)=C(N)OC4=C3C(=O)CCC4)c(C)nn2-c2ccccc2)cc1	MTCC 227	500 µg/mL
COc1ccnc(C(=O)NCC=C(C)C=C(C)C2COC(=O)C(Cc3ccccc3)C(OC(=O)C(C)C)C(C)OC2=O)c1O	IFO1061	>100 µg/mL
CC(=O)N[C@H]1[C@@H](O[C@@H]2O[C@H](C[C@@H](O)[C@H]3O[C@@H](n4ccc(=O)[nH]c4=O)[C@H](O)[C@@H]3O)[C@H](O)[C@H](O)[C@H]2NC(=O)/C=C/CC(C)C)O[C@H](CO)[C@@H](O)[C@@H]1O	-	0.25 µg/mL
CC1CCN(CCCCCCSc2ccc(/C=C/C(=O)c3ccccc3)cc2)CC1	PCM 1409 PZH	<237 µM
CC1(C)CCC(C)(C)c2cc(-c3nc4ccc([N+](=O)[O-])cc4[nH]3)ccc21	-	100 µg/mL
Cc1ccc2oc(=O)c3c(c2c1)OC(N)=C(C#N)C3c1cc2ccccc2nc1Oc1ccc(Cl)cc1	MTCC 227	500 µg/mL
COc1ccc(C2=[N+]([O-])c3ccccc3C2=O)cc1	-	>125 µg/mL
Cc1ccc(Oc2c(C3C(C#N)=C(N)OC4=C3C(=O)CC(C)(C)C4)c(C)nn2-c2ccc(C)cc2)cc1	MTCC 227	>1000 µg/mL